Test system: Burkholderia pseudomallei
Test: Antibacterial activity against Burkholderia pseudomallei 1026b infected in mouse AMJ.2 cells assessed as intracellular bacterial load at 10 ug/ml after 24 hrs by serial dilution plating technique in presence of IFN-gamma-harboring cationic liposome-DNA complex (reference value: 1.9 X 10^6 CFU)

Molecule `CC(C)(O/N=C(\C(=O)N[C@@H]1C(=O)N2C(C(=O)[O-])=C(C[n+]3ccccc3)CS[C@H]12)c1csc(N)n1)C(=O)O` has a log10cfu of 20000.
